# HIV-1 5' UTR: effect of mutations on RNA dimer formation

From the data files of Ye et al. 2022, doi:10.1038/s41594-022-00746-2.

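Mutant RNA libraries with 1G, 2G or 3G starts, with or without cap, were folded at 37 °C for 30 min. Monomer and dimer bands were cut from native gels after folding in high salt (300 mM KCl, 5 mM MgCl2) or low salt (40 mM KCl, 0.1 mM MgCl2). Mutation frequencies in the two bands give Kdimer.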

RNA: 5' end of the HIV-1 NL4-3 genome, made in vitro. Positions 1-437 read:
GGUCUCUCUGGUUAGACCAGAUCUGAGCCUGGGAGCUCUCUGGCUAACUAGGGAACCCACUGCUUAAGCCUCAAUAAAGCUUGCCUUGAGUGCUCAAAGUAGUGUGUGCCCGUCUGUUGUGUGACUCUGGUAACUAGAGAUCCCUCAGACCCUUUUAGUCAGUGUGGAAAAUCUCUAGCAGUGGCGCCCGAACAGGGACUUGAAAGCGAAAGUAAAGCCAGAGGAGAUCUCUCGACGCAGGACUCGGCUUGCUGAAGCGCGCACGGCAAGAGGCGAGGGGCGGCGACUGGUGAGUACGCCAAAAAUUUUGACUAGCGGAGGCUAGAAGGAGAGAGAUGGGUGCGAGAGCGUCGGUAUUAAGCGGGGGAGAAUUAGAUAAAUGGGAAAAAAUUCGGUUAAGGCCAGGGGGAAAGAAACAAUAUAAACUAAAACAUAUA

Values are log2 Kdimer, the median over the changes at each position: higher means that changes there hinder dimer formation, below 0 that they favour it.
One numbering serves 1G, 2G and 3G.
A position is written with its base where known.
Bases beyond 437 are not listed in the source.

| position | domain | 1G uncapped high-salt | 2G capped high-salt | 3G uncapped high-salt | 2G uncapped high-salt |
|---|---|---|---|---|---|
| A34 | TAR | 0.12 | 0.04 | 0.16 | 0.11 |
| G42 | TAR | -0.25 | -0.37 | -0.38 | -0.18 |
| C80 | PolyA | -0.09 | -0.15 | -0.06 | -0.15 |
| U86 | PolyA | 0.16 | 0.02 | 0.19 | 0.24 |
| C125 | PAS | 0.20 | -0.02 | 0.10 | 0.02 |
| C144 | PBS | 0.08 | 0.02 | -0.04 | 0.03 |
| C150 | PBS | 0.26 | 0.15 | 0.20 | 0.32 |
| A168 | PBS | 0.09 | 0.06 | 0.03 | 0.14 |
| A170 | PBS | 0.07 | 0.05 | -0.01 | 0.14 |
| G178 | PBS | 0.22 | 0.23 | 0.38 | 0.35 |
| G197 | PBS | 0.29 | 0.30 | 0.56 | 0.47 |
| A215 | PBS | 0.02 | -0.11 | -0.03 | 0.00 |
| C233 | CU | 0.78 | 0.54 | 0.49 | 0.80 |
| G254 | SL1 | 2.03 | 2.43 | 2.44 | 2.14 |
| G261 | SL1 | 6.73 | 4.52 | 6.79 | 7.18 |
| G277 | SL1 | 2.44 | 2.50 | 2.26 | 2.53 |
| G278 | none | 0.43 | 0.37 | 0.22 | 0.34 |
| C281 | none | 0.68 | 0.44 | 0.58 | 0.57 |
| G282 | none | 0.71 | 0.28 | 0.59 | 0.79 |
| A286 | SL2 | 0.48 | 0.47 | 0.51 | 0.31 |
| U288 | SL2 | -0.04 | -0.28 | -0.15 | -0.15 |
| U291 | SL2 | 0.12 | 0.04 | 0.14 | 0.02 |
| C297 | SL2 | 0.20 | 0.01 | 0.08 | 0.37 |
| A319 | SL3 | 0.13 | 0.17 | 0.07 | 0.21 |
| A326 | none | 0.05 | -0.15 | -0.01 | 0.00 |
| G361 | none | 0.06 | 0.02 | 0.09 | 0.10 |
| G365 | none | 0.07 | -0.02 | 0.16 | 0.03 |
| U372 | none | -0.01 | -0.11 | -0.09 | 0.01 |
| A380 | none | 0.07 | 0.06 | 0.04 | 0.01 |
| A411 | none | 0.06 | -0.05 | 0.00 | -0.04 |
| A416 | none | 0.13 | -0.02 | 0.09 | 0.00 |
| A430 | none | 0.09 | 0.05 | 0.01 | 0.11 |
| C432 | none | 0.08 | 0.14 | -0.11 | 0.13 |
| A435 | none | 0.02 | 0.04 | 0.07 | -0.02 |
| 438 | none | 0.06 | 0.02 | -0.02 | 0.01 |
| 448 | none | -0.05 | 0.24 | 0.10 | -0.08 |
| 454 | none | 0.00 | 0.04 | 0.14 | 0.04 |
| 467 | none | 0.12 | 0.26 | 0.08 | -0.07 |
| 480 | none | 0.05 | -0.08 | 0.12 | -0.12 |
| 496 | none | 0.03 | -0.09 | 0.04 | 0.10 |
| 515 | none | 0.06 | -0.05 | -0.02 | 0.01 |

2 of these entries, quoted again:

position,domain,1G uncapped high-salt,2G capped high-salt,3G uncapped high-salt,2G uncapped high-salt
G261,SL1,6.73,4.52,6.79,7.18
A215,PBS,0.02,-0.11,-0.03,0.00